For the data set, the target named is PsrA (UniProt Q9HZJ9). The data set is described as follows: EMSA. The following applies: 0-50 ng PsrA; recombinant protein; protein details: 6xHis (Fig 3C: PsrA-his tag); label: 32P; probe letters rebuilt from the primers and the genome. On the technique in general: Mobility shift assays separate free from complexed probe on a gel.

For at least one entry, the source does not settle the construct or the ends of the probe.

With “GAAACGGATATCACGCAAGGGGGCCTTGTAATCAGGCATAGCAGTCAACCTCTACGAAGGGTTCTGGTTAATCGGCGACCGGACGGATGTCCAGAGTCTGCGGTCGCAGTGCGGGATCGCTCCCGGTCGCCTTGCCGGACGCACTCATGCGTCCCGGCTCTCAAACAGGCGTTTGAAACATACGTTTACGCCAATCCCTTGTCAAGCATCCGAACCGACCGCTCGGTCATGCCCGAAATCACTGGCAGCCACGTCCTTCCAAAGCACTTTCGTCTCTCTCAGTAAAGCCCATGGCGAAGCGCCCGGCAGGCTTCAGGGGCCGCCGGGTGACAGTCGGAAAAGGAAGGGTC (double strand) [PA0506 promoter fragment (349 bp)]”, the binding result is on record as “binds”.

The values are drawn from PMC5722320.
